Results published in patent US20160304570A1, “Potent and selective inhibitors of nav1.3 and nav1.7” (published 2016).

What was measured:
Test in all cases: cell-based or functional assay
[1] = target: human voltage-gated sodium channel Nav1.5 (human), Q14524
[2] = target: human voltage-gated sodium channel Nav1.3 (human), Q9NY46
[3] = target: human voltage-gated sodium channel Nav1.7 (human), Q15858

Binder	IWQ Use Nav1.5 [1] [µM]	IWQ Use Nav1.3 [2] [µM]	IWQ Use Nav1.7 [3] [µM]	IC50, IWQ Use Nav1.5 [1] [nM]	IC50, IWQ Use Nav1.3 [2] [nM]	IC50, IWQ Use Nav1.7 [3] [nM]	also measured
DCLGFMRKCIPDNDKCCRPNLVCSRTHKWCKQVF (modifications not checked) [[Gln32]GpTx-1(1-34)]	21	2.39	4.87				
DCLGFMRKCIPDNDKCCRPNLVCSRTHKWCKIVF (modifications not checked) [[Ile32]GpTx-1(1-34)]	8.71	0.06	0.07				
DCLGFMRKCIPDNDKCCRPNLVCSRTHKWCKMVF (modifications not checked) [[Met32]GpTx-1(1-34)]	6.21	0.14	0.35				
DCLGFMRKCIPDNDKCCRPNLVCSRTHKWCKTVF (modifications not checked) [[Thr32]GpTx-1(1-34)]	11.1	3.29	3.54				
DCLGFMRKCIPDNDKCCRPNLVCSRTHKWCKVVF (modifications not checked) [[Val32]GpTx-1(1-34)]	14.8	0.08	0.15				
ECLGFMRKCIPDNDKCCRPNLVCSRTHKWCKYVF (modifications not checked) [[Glu1]GpTx-1(1-34)]	14.2	0.15	0.22				
DCLGFMRKCIPDNDKCCRPNLVCSRTHKWCKLVF (modifications not checked) [[Leu32]GpTx-1(1-34)]	8.83	0.08	0.12				
DCLGFMRKCIPDNDKCCRPNLVCSRTHKWCKFVF (modifications not checked) [[Phe32]GpTx-1(1-34)]							IWQ Use Nav1.5 (µM); IC50 of peak inward current, IonWorks Quattro [1]: 6.84 µM; IWQ Use Nav1.3 (µM); IC50 of peak inward current, IonWorks Quattro [2]: 0.05 µM; IWQ Use Nav1.7 (µM); IC50 of peak inward current, IonWorks Quattro [3]: 0.05 µM
DCLGFMRKCIPDNDKCCRPNLVCSRTHKWCKGVF (modifications not checked) [[Gly32]GpTx-1(1-34)]							IWQ Use Nav1.5 (µM); IC50 of peak inward current, IonWorks Quattro [1]: 11.2 µM; IWQ Use Nav1.3 (µM); IC50 of peak inward current, IonWorks Quattro [2]: 0.62 µM; IWQ Use Nav1.7 (µM); IC50 of peak inward current, IonWorks Quattro [3]: 0.71 µM
DCLGFMRKCIPDNDKCCRPNLVCSRTHKWCKNVF (modifications not checked) [[Asn32]GpTx-1(1-34)]							IWQ Use Nav1.5 (µM); IC50 of peak inward current, IonWorks Quattro [1]: 10.6 µM; IWQ Use Nav1.3 (µM); IC50 of peak inward current, IonWorks Quattro [2]: 6.85 µM; IWQ Use Nav1.7 (µM); IC50 of peak inward current, IonWorks Quattro [3]: 4.86 µM
DCLGFMRKCIPDNDKCCRPNLVCSRTHKWCKHVF (modifications not checked) [[His32]GpTx-1(1-34)]							IWQ Use Nav1.5 (µM); IC50 of peak inward current, IonWorks Quattro [1]: 10.2 µM; IWQ Use Nav1.3 (µM); IC50 of peak inward current, IonWorks Quattro [2]: 0.75 µM; IWQ Use Nav1.7 (µM); IC50 of peak inward current, IonWorks Quattro [3]: 0.6 µM
KCLGFMRKCIPDNDKCCRPNLVCSRTHKWCKYVF (modifications not checked) [[Lys1]GpTx-1(1-34)]	7.29	0.07	0.15				
DCLGFMRKCIPDNDKCCRPNLVCSRTHKWCKYAF (modifications not checked) [[Ala33]GpTx-1(1-34)]				18600	350	330	
DCLGFMRKCIPDNDKCCRPNLVCSRTHKWCKYKF (modifications not checked) [[Lys33]GpTx-1(1-34)]				9560	70	70	
DCLGFMRKCIPDNDKCCRPNLVCSRTHKWCKYRF (modifications not checked) [[Arg33]GpTx-1(1-34)]				9550	50	80	
RCLGFMRKCIPDNDKCCRPNLVCSRTHKWCKYVF (modifications not checked) [[Arg1]GpTx-1(1-34)]	8.78	0.1	0.11				
DCLGFMRKCIPDNDKCCRPNLVCSRTHKWCKYQF (modifications not checked) [[Gln33]GpTx-1(1-34)]				10600	110	120	Nav1.5 Use IC50 (PatchXpress whole cell patch clamp) [1]: 8250 nM; Nav1.3 Use IC50 (PatchXpress whole cell patch clamp) [2]: 10 nM; Nav1.7 Use IC50 (PatchXpress whole cell patch clamp) [3]: 6 nM
WCLGFMRKCIPDNDKCCRPNLVCSRTHKWCKYVF (modifications not checked) [[Trp1]GpTx-1(1-34)]	8.79	0.1	0.05				
DCLGFMRKCIPDNDKCCRPNLVCSRTHKWCKYFF (modifications not checked) [[Phe33]GpTx-1(1-34)]				8660	40	60	
DCLGFMRKCIPDNDKCCRPNLVCSRTHKWCKYMF (modifications not checked) [[Met33]GpTx-1(1-34)]				15100	80	70	
